# PubChem BioAssay AID624412 (The Scripps Research Institute Molecular Screening Center, 2012)
# The entries are a selection whose mix differs from that of the whole data set. Active and inactive are the calls of the source. No stated cut-off is given here; in the data, active means inhibition above about 7%; inactive means the rest.
# Tested on: methionyl-tRNA synthetase (Trypanosoma brucei brucei)
# Assay: T. brucei MetRS inhibitors, confirmation, biochemical, luminescence (AID 624412)
# Conditions: T. brucei MetRS enzyme, luminescence (ATP depletion); at 11.9 µM; active compounds read high
row,Structure (SMILES),inhibition
1,CCC1=CC2Cc3nc4ccc(Cl)cc4c(N)c3C(C1)C2 (configuration not stated),active: 96.1%
2,O=P(Nc1nc2ccc(Cl)cc2s1)(c1ccccc1)c1ccccc1,active: 44.8%
